For one molecule, Kd results are on record in patent publication US20250026814A1, “Polypeptides for detection and treatment of coronavirus infection” (published 2025).

As usually defined, the Kd is a measure of binding affinity in units of concentration. The low end stands for a tighter complex, the high end for a looser complex.

For test [1], the target named is Wildtype(WT)-2P spike FL trimer (SARS-CoV-2, UniProt P0DTC2 14-1213). Nature of the test: BLI; 1:1 binding.
In test [2] the target is Wildtype(WT)-6P spike FL trimer (SARS-CoV-2, UniProt P0DTC2 14-1213). Put plainly: BLI; 1:1 binding. Background: BLI is a label-free optical method that tracks binding on a fibre tip over time.

B1: S728-1157 Fab (antibody, V domains shown)
VH: EVQLVESGGGLVQPGGSLRLSCAASGLLVSRNYMNWVRQAPGKGLEWVSIIYSGGSTFYADSVEGRFTISRDESKNTLYLQMNSLRTDDTAVYYCARDLSDYGGIDCWGQGTLVTVSS
VL: YELTQPLSVSMALGQTARISCGGDNVGSQNVHWYQQRPGQAPVLVIYRDSNRPSGIPERFSGSKSGNTATLTISRAQAGDEADYYCQVWDSSTVAFGGGTKLTVL
With B1, the results for the dissociation constant (Kd) in test [1] and in test [2] were 19.2 nM and 5.7 nM, respectively.
